Pooled drug test results. Numbers come from NIAID ChemDB, via PubChem.

Common to all: cytotoxicity tests; cells: MT-4; measure: CC50

Blank or dashed fields: not listed here. Conditions beyond the fields shown may differ between rows. CCn is the concentration with n% toxicity to the cells.

smiles | read by | value
CCN(CC)c1cc(-c2ccc(OCCCCC#N)cc2O)on1 | - | 5.6 µM
CCCCCCCCCCCCCCNC(=O)C(CO[C@@H]1O[C@H](CO)[C@H](O)[C@H](O)[C@H]1O)NC(=O)CC(=O)NCCS(=O)(=O)O | - | >100 µM
CCc1c(C(=O)c2cc(F)cc(F)c2)n(Cc2cccnc2)c(=O)[nH]c1=O | MTT | 74.3 µg/mL
CC(C)(C)[Si](C)(C)O[C@H]1[C@H](n2cnc3c(N)ncnc32)O[C@H](CO)C12CS(=O)(=O)C=C2N | - | ≥200 µg/mL
O=C(O)CN1CCn2c(nc(C(=O)NCc3ccc(F)cc3)c(O)c2=O)C1 | microscopy | >1 µM
CCN(CC)c1cc(=O)c2ccc(OCCCCC#N)cc2o1 | - | >200 µM
C=C(C)COCn1c(C(=C)c2cc(C)cc(C)c2)c(CC)c(=O)[nH]c1=O | MTT | 34 µM
Cc1cc(C)cc(S(=O)(=O)c2c(C(=O)/C=C/C(N)=O)[nH]c3ccc(Cl)cc23)c1 | MTT | >200 µM
C=C(c1cc(C)cc(C)c1)c1c(CC)c(=O)[nH]c(=O)n1COCC | MTT | >100 µM
CN1CCn2c(nc(C(=O)NCc3ccc(F)cc3)c(O)c2=O)C1CN(C)S(C)(=O)=O | microscopy | >10 µM
Cc1cccc(Nc2nn3c(=O)c4ccccc4nc3s2)c1 | MTT | >40.65 µg/mL
C=C(c1ccccc1)c1c(CC)c(=O)[nH]c(=O)n1COC/C=C/c1ccccc1 | MTT | 29 µM
Cc1cc(C)nc(NS(=O)(=O)c2ccc(N=C3C(=O)N(CN4CCN(c5ccc([N+](=O)[O-])cc5)CC4)c4ccc(F)cc43)cc2)n1 | MTT | 44.12 µM
O=C(O)CCCCCCCCCCCCC(=O)NC(CO[C@@H]1O[C@H](CO)[C@H](O)[C@H](O)[C@H]1O)C(=O)NCCO | - | >100 µM
CCc1c(C(=O)c2cc(Cl)cc(Cl)c2)n(Cc2ccncc2)c(=O)[nH]c1=O | MTT | 32.9 µg/mL
C=C(C)[C@@H]1CC[C@]2(C(=O)NCCCCCCCC(=O)N[C@@H](CC(C)C)[C@@H](O)CC(=O)O)CC[C@]3(C)[C@H](CC[C@@H]4[C@@]5(C)CC[C@H](O)C(C)(C)[C@@H]5CC[C@]43C)[C@@H]12 | - | >10 µM
Nc1nc2c(ncn2[C@@H]2C[C@H](O)[C@H](CO)O2)c(=O)[nH]1 | - | >100 µM
C=C(C)[C@@H]1CC[C@]2(C(=O)On3nnc4ccccc43)CC[C@]3(C)[C@H](CC[C@@H]4[C@@]5(C)CC[C@H](OC(=O)C(C)(C)CC(=O)O)C(C)(C)[C@@H]5CC[C@]43C)[C@@H]12 | - | 2.5 µM
CCN(CC)c1cc(-c2ccc(OCCCCCNC(C)=O)cc2O)on1 | - | 22 µM
CN1CCn2c(nc(C(=O)NCc3ccc(F)c(Br)c3)c(O)c2=O)C1(C)C | microscopy | >1 µM
CCn1cc(C(=O)O)c(=O)c2cc(F)c(N3CCN(CN4C(=O)C(=Nc5ccc(S(=O)(=O)Nc6nc(C)cc(C)n6)cc5)c5ccccc54)C(C)C3)c(F)c21 | MTT | 122 µM
COc1ccc(/C=C/C(=O)O[C@@H]2[C@@H](OC(=O)/C=C/c3ccc(OC)cc3)[C@H](O[C@H]3[C@H](OC(=O)/C=C/c4ccc(OC)cc4)[C@@H](OC(=O)/C=C/c4ccc(OC)cc4)[C@H](O[C@H]4CC[C@@]5(C)C(CC[C@]6(C)C5C(=O)C=C5C7C[C@@](C)(C(=O)O)CC[C@]7(C)CC[C@]56C)C4(C)C)O[C@@H]3C(=O)O)O[C@H](C(=O)O)[C@H]2OC(=O)/C=C/c2ccc(OC)cc2)cc1 | - | <100 µg/mL
Cc1cc(C)cc(C(=O)c2c(C(C)C)c(=O)[nH]c(=O)n2Cc2ccccc2)c1 | MTT | 8.01 µg/mL
N#Cc1ccc(Nc2nc(N)nc(Oc3ccc4ccccc4c3)n2)c(F)c1 | - | 336 µM
C=CCOCn1c(C(=C)c2ccccc2)c(CC)c(=O)[nH]c1=O | MTT | >100 µM
CNc1nc(Nc2ccc(C#N)cc2F)nc(Oc2ccc(C)cc2)n1 | - | 248 µM
Cc1cc(C)cc(Sc2c(C(C)C)c(=O)[nH]c(=O)n2Cc2ccncc2)c1 | MTT | 8.5 µg/mL
C=C(C)[C@@H]1CC[C@]2(C(=O)NCCCCCCCCCNC(C)=O)CC[C@]3(C)[C@H](CC[C@@H]4[C@@]5(C)CC[C@H](OC(=O)CC(C)(C)C(=O)O)C(C)(C)[C@@H]5CC[C@]43C)[C@@H]12 | - | 7.4 µM
C=C(c1cc(C)cc(C)c1)c1c(CC)c(=O)[nH]c(=O)n1COCC#Cc1ccccc1 | MTT | 31 µM
CN1CCCn2c(nc(C(=O)NCc3ccc(F)cc3)c(O)c2=O)C1(C)C | microscopy | >1 µM
CC(C)(C)[Si](C)(C)OC[C@H]1O[C@@H](n2cnc3c(N)ncnc32)[C@H](O[Si](C)(C)C(C)(C)C)C12OS(=O)(=O)C=C2N | - | 3.9 µg/mL
C=CNc1nc(Nc2ccc(C#N)cc2F)nc(Oc2ccc3ccccc3c2Cl)n1 | - | 280 µM
C=C(c1cc(C)cc(C)c1)c1c(CC)c(=O)[nH]c(=O)n1COC1Cc2ccccc2C1 | MTT | 34 µM
Cc1cc(C)nc(NS(=O)(=O)c2ccc(N=C3C(=O)N(CN4CCN(c5cc6c(cc5F)c(=O)c(C(=O)O)cn6C)CC4C)c4ccccc43)cc2)n1 | MTT | 128.6 µM
CCCCCCCCCCCCCC(=O)NCC(C(=O)CCCCCCCCCCCCC)C(=O)NCCNC(=O)C(O)C(O[C@@H]1O[C@H](CO)[C@H](O)[C@H](O)[C@H]1O)C(O)CO | - | >100 µM
CC(=O)O[C@H]1[C@H](n2cc(C)c(=O)[nH]c2=O)O[C@H](COC(=O)c2ccccc2)C12OS(=O)(=O)C=C2N | - | >100 µg/mL
CC1(C)C2CC[C@@]3(C)C4CC[C@@]5(C)CC[C@](C)(C(=O)O)C[C@H]5C4=CC(=O)C3[C@@]2(C)CC[C@@H]1O[C@@H]1O[C@H](C(=O)O)[C@@H](O[C@@H]2O[C@H](C(=O)O)[C@@H](O)[C@H](O)[C@H]2O)[C@H](O)[C@H]1O | - | 1960 µg/mL
CC(C)c1c(C(=O)c2cc(F)cc(F)c2)n(Cc2ccccn2)c(=O)[nH]c1=O | MTT | 49.87 µg/mL
CCN(CC)c1cc(-c2ccc(OCCCCC#N)cc2OC(=O)c2ccc([N+](=O)[O-])cc2)on1 | - | 5 µM
C=C(c1cc(C)cc(C)c1)c1c(CC)c(=O)[nH]c(=O)n1COC/C(C)=C/c1ccccc1 | MTT | 31 µM
CCc1c(C(=O)c2cc(F)cc(F)c2)n(Cc2cc(C)nc(C)c2)c(=O)[nH]c1=O | MTT | 37.5 µg/mL
CC(=O)N(C)C1COCCn2c1nc(C(=O)NCc1ccc(F)cc1)c(O)c2=O | microscopy | >1 µM
Cc1cc(Cn2c(C(=O)c3cc(Cl)cc(Cl)c3)c(C(C)C)c(=O)[nH]c2=O)ccn1 | MTT | 12.07 µg/mL
C=C(C)[C@@H]1CC[C@]2(C(=O)NCCCCCCCCNC(C)=O)CC[C@]3(C)[C@H](CC[C@@H]4[C@@]5(C)CC[C@H](OC(=O)CC(C)(C)C(=O)O)C(C)(C)[C@@H]5CC[C@]43C)[C@@H]12 | - | 7 µM
CCn1cc(C(=O)O)c(=O)c2cc(F)c(N3CCN(CN4C(=O)C(=Nc5ccc(S(=O)(=O)Nc6nc(C)cc(C)n6)cc5)c5cc(F)ccc54)CC3)cc21 | MTT | 132.1 µM
Cc1cc(C)cc(Oc2c(C(C)C)c(=O)[nH]c(=O)n2Cc2ccncc2)c1 | MTT | 15.8 µg/mL
C=CCOCn1c(C(=C)c2cc(C)cc(C)c2)c(CC)c(=O)[nH]c1=O | MTT | 36 µM
O=c1c2ccccc2nc2scnn12 | MTT | >63.7 µg/mL
CCc1c(-c2coc(CC/C(C)=C/c3ccccc3)n2)oc(OC)c(C)c1=O | - | 66 µM
C#CCOCn1c(C(=C)c2ccccc2)c(CC)c(=O)[nH]c1=O | MTT | >100 µM

For reference, 6 entries again:

smiles	read by	value
O=C(O)CN1CCn2c(nc(C(=O)NCc3ccc(F)cc3)c(O)c2=O)C1	microscopy	>1 µM
C#CCOCn1c(C(=C)c2ccccc2)c(CC)c(=O)[nH]c1=O	MTT	>100 µM
C=C(c1cc(C)cc(C)c1)c1c(CC)c(=O)[nH]c(=O)n1COC1Cc2ccccc2C1	MTT	34 µM
CCn1cc(C(=O)O)c(=O)c2cc(F)c(N3CCN(CN4C(=O)C(=Nc5ccc(S(=O)(=O)Nc6nc(C)cc(C)n6)cc5)c5ccccc54)C(C)C3)c(F)c21	MTT	122 µM
C=CNc1nc(Nc2ccc(C#N)cc2F)nc(Oc2ccc3ccccc3c2Cl)n1	-	280 µM
CNc1nc(Nc2ccc(C#N)cc2F)nc(Oc2ccc(C)cc2)n1	-	248 µM